The values below come from US20220168221A1 (priority 2020, published 2022).

A short description of data set [1]: Mouse weights, drinking and clinical observation in Study 1. Particulars: for signs of distress (ruffled fur, apathy, severe agitation): in general, daily examination.
A short description of data set [2]: Stability of nikZ in aqueous solution (DiW). Particulars: during 96 hours, 20-25° C. The class given is physicochemical.
Data set [3] is described as follows: Toxicology study in mice, oral gavage q.d. for 7 days. The class given is in vivo, mouse. The conditions noted are these: 2000 mg/kg/day q.d. by oral gavage, after 7 days.
The test system of data set [4] is Coccidioides. Particulars: cited from earlier work.
Data set [5] deals with Coccidioides posadasii strain Silveira (ATCC 28868). The class given is in vivo.
Where [6] appears, read: IP 1000 mg/kg BID, injected as suspension.

Molecules are shown by their SMILES.

With `OC(Cn1cncn1)(Cn1cncn1)c1ccc(F)cc1F` [FCZ, fluconazole, reference compound], in data set [1], the “signs of distress (ruffled fur, apathy, severe agitation)” value was “did not show signs of distress”.

Regarding `C[C@@H]([C@H](N)C(=O)N[C@H](C(=O)O)[C@H]1O[C@@H](n2ccc(=O)[nH]c2=O)[C@H](O)[C@@H]1O)[C@H](O)c1ccc(O)cn1` [nikZ, nikkomycin Z], in data set [2], the “potency of DiW in an in vitro system” value is given as “essentially unchanged”. Also, the “signs of abnormality or distress” value in data set [3] is reported as “no signs of abnormality or distress”. Moreover, the “decrease in drinking on the last day” value in data set [1] (DiW 2000 mpk/day group) was “about 10%”. In data set [1] (setting [6]), the “behaviour immediately after application” value is “apathetic and showed ruffled fur”; the recovery after application entry is “back to normal within an hour”. Besides, the “signs of distress (ruffled fur, apathy, severe agitation)” value in data set [1] was “did not show signs of distress”. Moreover, the MIC level result in data set [4] (reports and expectations) is on record as “about 63 ng/ml”. Further, the anticipated therapeutic level in data set [4] (sometimes cited) is 65 ng/mL. Moreover, in data set [5] (5 days therapy), the clinical outcome is on record as “essentially eradicating the disease”. Further, in data set [5] (all doses (200, 600, 2000 mg/kg/day), DiW or IP BID), the “fungal loads in lungs vs water” value is listed as “significantly decreased”. In addition, in data set [5] (all doses, DiW or IP BID), the “fungal loads in livers vs water” value was “significantly decreased” and the “fungal loads in spleens vs water” value is “significantly decreased”. In addition, in data set [5] (several doses), the “fungal loads in livers compared with FCZ 100 mg/kg” value is reported as “significantly more anti-fungal” and the “fungal loads in lungs compared with FCZ 100 mg/kg” value is given as “significantly more anti-fungal”.
